Source: PMC10499915 (Scientific Reports, 2023)
Peptide text beside a SMILES is read from it. * marks the point of attachment. Lauroyl = CCCCCCCCCCCC(=O)*; Octanoyl = CCCCCCCC(=O)*

Assay: Circular dichroism, helicity
Type: physicochemical
Conditions: calculated from the [θ]222 value in 100 mM SDS solution; CD, 3 × 10^−4 M peptide
Description: The secondary structure of the peptides was investigated by circular dichroism (CD) spectroscopy in various environments, including 0.2 mM potassium-phosphate buffer (aqueous solution, pH 7), 100 mM sodium dodecyl sulphate (SDS), and 2,2,2-trifluoroethanol (TFE). As these peptides are active on membranes, we chose SDS, as SDS micelles represent a model mimicking the prokaryotic cell membrane. TFE, on the other hand, is a solvent that induces the formation of helical structures.
The electronic CD curves in the far-UV region (below 260 nm) were obtained on a Jasco (Tokyo, Japan) model J-1500 spectropolarimeter with a fused quartz cell of 0.02 cm pathlength (Hellma, Mühlheim, Germany). The values are expressed in terms of [θ]R, the molar ellipticity per residue (deg × cm^2/dmol). Spectra were recorded at room temperature in water, in spectrograde TFE (99.9% Acros Organics, Geel, Belgium) and 100 mM SDS solution at 3 × 10^−4 M peptide concentration. The final molar peptide-to-lipid ratio is 1:300.

Row | Compound | Helicity (%)
1 | CCCCCCCC(=O)N[C@@H](CCCCN)C(=O)N[C@@H](CCCNC(=N)N)C(=O)N[C@@H](CC(C)C)C(=O)N[C@@H](CCCCN)C(=O)N[C@@H](CCCCN)C(=O)N[C@H](C(=O)NCC(=O)N[C@@H](CCCCN)C(=O)N[C@H](C(=O)N[C@@H](CC(C)C)C(=O)N[C@@H](CCCCN)C(=O)N[C@@H](Cc1c[nH]c2ccccc12)C(=O)N[C@H](C(=O)N[C@@H](C)C(=O)N[C@@H](CCCCN)C(=O)N[C@H](C(=O)N[C@H](C(=O)NCC(=O)N[C@@H](CO)C(=O)N[C@H](C(N)=O)[C@@H](C)CC)C(C)C)[C@@H](C)CC)[C@@H](C)CC)C(C)C)[C@@H](C)CC [c] (Octanoyl-KRLKKIGKVLKWIAKIVGSI-NH2) | 71%
2 | CCCCCCCCCCCC(=O)N[C@@H](CCCCN)C(=O)N[C@@H](CCCNC(=N)N)C(=O)N[C@@H](CC(C)C)C(=O)N[C@@H](CCCCN)C(=O)N[C@@H](CCCCN)C(=O)N[C@H](C(=O)NCC(=O)N[C@@H](CCCCN)C(=O)N[C@H](C(=O)N[C@@H](CC(C)C)C(=O)N[C@@H](CCCCN)C(=O)N[C@@H](Cc1c[nH]c2ccccc12)C(=O)N[C@H](C(=O)N[C@@H](C)C(=O)N[C@@H](CCCCN)C(=O)N[C@H](C(=O)N[C@H](C(=O)NCC(=O)N[C@@H](CO)C(=O)N[C@H](C(N)=O)[C@@H](C)CC)C(C)C)[C@@H](C)CC)[C@@H](C)CC)C(C)C)[C@@H](C)CC [d] (Lauroyl-KRLKKIGKVLKWIAKIVGSI-NH2) | 47%
3 | Ac-KRLKKIGKVLKWIAKIVGSI-NH2 [b] | 94%
4 | Ac-KRLKKIGKVLKWIPPIVGSI-NH2 [a] | 18%
